Data: the supplement of paper PMC11865577

How the values were obtained:
Experiment in all cases: pull-down binding Z-score (relative to library population); higher = stronger binding
Conditions in all cases: RNA library: Library-2
[1] = test system: TO-3-N3-2 (biotin conjugate)
In short: (§1)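 A heat-folded, dye-end-labelled (Cy5 or Cy3) RNA library (1 μg, phosphate/NaCl/KCl buffer) was exposed for 60 min at 25 °C to streptavidin beads holding 100 pmol of biotin-conjugated small molecule. RNA retained on the beads was eluted in hot SDS and hybridised to a DNA barcode microarray for 20 h at 55.5 °C. Binding scores were Z-scores against the library mean and standard deviation, calculated after subtracting beads alone and taking trimmed means of replicate probes.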

[2] = test system: TO-N3-2 (biotin conjugate)
In short: as §1

[3] = test system: TO-3-N3 (biotin conjugate)
In short: as §1

TO-N3 (biotin conjugate) = test system: TO-N3 (biotin conjugate)
In short: as §1

Row | Sequence | pull-down binding Z-score [1] | pull-down binding Z-score [2] | pull-down binding Z-score [3] | pull-down binding Z-score (TO-N3 (biotin conjugate))
1 | AGCCCGUCUUACACCGUGCGGCACAGGCACUAGUACUGAUGUCGUAUACAGGGCU [SHAPE_invivo_SARS-CoV-2_Motif_256] | -0.55 | 0.548 | -0.797 | -0.605
2 | AGCCUCAAAGAUUUUGGGACUACCAACUCAAACUGUUGAUUCAUCACAGGGCU | 0.0042 | -0.27 | -0.34 | -0.349
3 | AGCCUUGUAGUGACAAAGCU [DMSMaPseq_invitro_SARS-CoV-2_Motif_339] | 0.116 | -0.266 | 0.956 | 0.833
4 | AGCGUACUUCUUUUUCUUGCU [SHAPE_invitro_SARS-CoV-2_Motif_479] | 0.0268 | -0.536 | -0.355 | -0.353
5 | AGCUAUAGCCUCAGAGUUUAGUUCCCUUCCAUCAUAUGCAGCUUUUGCUACUGCUCAAGAAGCUUAUGAGCAGGCUGUUGCU [SHAPE_invivo_SARS-CoV-2_Multi_31_ComplexLevel_1] | 0.194 | 0.316 | -0.491 | -0.142
6 | AGCUAUGACCCAAAUGUAUAAACAGGCU [SHAPE_invitro_SARS-CoV-2_Motif_222] | -0.369 | -0.538 | -0.734 | -0.903
7 | AGCUGGUGCUGCAGCU [SHAPE_invitro_SARS-CoV-2_Motif_405] | -0.232 | 0.184 | -0.149 | -0.168
8 | AGCUGGUUUUGCU [SHAPE_invitro_SARS-CoV-2_Motif_247] | -0.261 | -1.27 | -0.688 | -1.15
9 | AGCUUUUUGCAGCAGAAACGCUCAAAGCU [SHAPE_invivo_SARS-CoV-2_Motif_314] | -0.189 | -0.327 | -0.324 | -0.206
10 | AGGAAAAGCAGGGCUCAGGGCCAGAGAGACUGGGCAUAGAACUAAGGAGGAUGGUGUCCUCCUGACUGCAUCUCUCUUCCCUCUCCCACCCCUUGCAG [hsa-mir-6892] | 0.297 | 1.12 | -0.00154 | 0.661
11 | AGGAAGAGAAUCAGCAACUGUGUUGCUGAUUAUUCUGUCCU [SHAPE_invivo_SARS-CoV-2_Motif_426] | -0.489 | -0.637 | -0.696 | -1.02
12 | AGGAAGGAAGUUCUGUUGAAUUAAAACACUUCUUCUUUGCU | -0.171 | -0.505 | -0.495 | -0.673
13 | AGGACCUGAGCAUAGUCUUGCCGAAUACCAUAAUGAAUCUGGCUUGAAAACCAUUCUUCGUAAGGGUGGUCGCACUAUUGCCUUUGGAGGCUGUGUGUUCU [SHAPE_invitro_SARS-CoV-2_Multi_5_ComplexLevel_1] | 0.0935 | 0.283 | 0.412 | 0.567
14 | AGGACCUGCCUAAAGAAAUCACUGUUGCUACAUCACGAACGCUUUCUUAUUACAAAUUGGGAGCUUCGCAGCGUGUAGCAGGUGACUCAGGUUUU | -0.0157 | 0.976 | -0.0595 | 0.225
15 | AGGACUUGUUCUUACCUUUCUUUUCCAAUGUUACUUGGUUCCAUGCUAUACAUGUCUCUGGGACCAAUGGUACUAAGAGGUUUGAUAACCCUGUCCU [DMSMaPseq_invitro_SARS-CoV-2_Motif_382] | -0.233 | -0.582 | 0.181 | -0.058
16 | AGGAUCCGAACCCAGGGGUGGGGGGUGGAGGCGGCUCCUGCGAUCGAAGGGGACUUGAGACUCACCGGCCGCACGCCAUGAGGGCCCUGUGGGUGCUGGGCCU [hsa-mir-3652] | 5.63 | 3.11 | 4.94 | 4.29
17 | AGGCAGAUGGGCUAUAUAAACGUUUUCGCUUUUCCGUUUACGAUAUAUAGUCUACUCUU | -0.148 | -0.414 | -0.726 | -0.6
18 | AGGCUAUUUUUGUACUUGUUACUUUGGCCU | -0.154 | -0.711 | -0.625 | -0.731
19 | AGGGCCGGUCGGCCGCCCCGGGUGCCGCGCGGUGCCGCCGGCGGCGGUGAGGCCCCGCGCGUGUGUCCCGGCUGCGGUCGGCCGCGCUCG [hsa-mir-3648-1_3648-2] | -0.298 | 2.33 | 0.802 | 1.21
20 | AGGGGCAAUUCUCCU [IAV_invivo_PB2_1_Motif_32+IAV_invivo_PB2_1_Motif_32] | -0.195 | -0.344 | 0.0161 | -0.149
21 | AGGGGUGUAUACUGCUGCCGUGAACAUGAGCAUGAAAUUGCUUGGUACACGGAACGUUCUGAAAAGAGCUAUGAAUUGCAGACACCUUU [SHAPE_invivo_SARS-CoV-2_Multi_2_ComplexLevel_1] | 0.713 | 0.407 | 1.1 | 1.22
22 | AGGGUGUUAUCACGCAUGAUGUUUCAUCUGCAAUUAACAGGCCACAAAUAGGCGUGGUAAGAGAAUUCCUUACACGUAACCCU [SHAPE_invitro_SARS-CoV-2_Multi_49_ComplexLevel_1] | -0.0901 | 0.333 | -0.742 | -0.586
23 | UUAUGAUUCAAUGAGUUAUGA | -0.758 | -1.52 | -0.887 | -1.32
24 | UUGCAAACUACACAAUUGGAAUUGUGUUAAUUGUGA [SHAPE_invivo_SARS-CoV-2_Motif_155] | -0.44 | -1.49 | -0.32 | -0.572
25 | UUGCAGCAGAAACGCUCAA [DMSMaPseq_invitro_SARS-CoV-2_Motif_298] | -0.0631 | 0.236 | 0.179 | 0.136
26 | UUGCAUAAUGUCUGAUAGAGACCUUUAUGACAA | -0.353 | -0.837 | -0.845 | -0.821
27 | UUGCCAAAAGGCUUCUACGCAGAAGGGAGCAGAGGCGGCAGUCAAGCCUCUUCUCGUUCCUCAUCACGUAGUCGCAACAGUUCAAGAAAUUCAACUCCAGGCAG | -0.594 | 0.572 | -0.66 | -0.023
28 | UUGCCAACCAAUUUAAUAGUGCUAUUGGCAA | -0.209 | -0.771 | -0.641 | -1.1
29 | UUGCUAUUCAUGCAG [SHAPE_invitro_SARS-CoV-2_Motif_425] | 0.498 | -0.217 | 0.339 | 0.334
